Measured values from several laboratories, pooled; numbers as filed in NIAID ChemDB.

Shared fields: whole-cell or culture tests; agent: Mycobacterium avium complex

An empty or dashed field is not shown.

compound,method,tested at,strain,endpoint,result
CN[C@@H]1[C@@H](O)[C@@H](O[C@@H]2[C@@H](O)[C@H](O[C@H]3O[C@H](CN)CC[C@H]3N)[C@@H](N)C[C@H]2N)OC[C@]1(C)O,broth dilution,8 µg/mL,31 strains,inhibition,39%
NC[C@H]1O[C@H](O[C@H]2[C@H](O)[C@@H](O[C@H]3O[C@H](CO)[C@@H](O)[C@H](N)[C@H]3O)[C@H](N)C[C@@H]2N)[C@H](O)[C@@H](O)[C@@H]1O,-,-,Isolate C-43,MIC,50 µg/mL
CC[C@@H](CO)NCCN[C@@H](CC)CO,-,-,1339-3,MBC,15 µg/mL
CC(C)N=c1cc2n(-c3ccc(Cl)cc3)c3ccccc3nc-2cc1Nc1ccc(Cl)cc1,-,-,SK46/HIV+,MIC,2 µg/mL
CO[C@H]1/C=C/O[C@@]2(C)Oc3c(C)c(O)c4c(O)c(c(/C=N/N5CCN(C/C=C/c6ccccc6)CC5)c(O)c4c3C2=O)NC(=O)/C(C)=C\C=C\[C@H](C)[C@H](O)[C@@H](C)[C@@H](O)[C@@H](C)[C@H](OC(C)=O)[C@@H]1C,-,-,101,MBC,2 µg/mL
CCC1CN(c2cc3c(cc2F)c(=O)c(C(=O)O)cn3C(C)(C)C)CCN1,-,-,14 strains,MIC50,2 µg/mL
Nc1ccc(C(=O)O)c(O)c1,agar,5 µg/mL,97 strains,inhibition,4%
O=C(O)c1cn(C2CC2)c2c(F)c(N3CCC(O)C3)c(F)cc2c1=O,-,-,14 strains,MIC50,4 µg/mL
CO[C@H]1/C=C/O[C@@]2(C)Oc3c(C)c(O)c4c(O)c(c5c(c4c3C2=O)NC2(CCN(CC(C)C)CC2)N=5)=NC(=O)/C(C)=C\C=C\[C@H](C)[C@H](O)[C@@H](C)[C@@H](O)[C@@H](C)[C@H](OC(C)=O)[C@@H]1C,-,-,26 isolates (HIV+),MIC90,1 µg/mL
C[C@@H]1CN(c2c(F)c(N)c3c(=O)c(C(=O)O)cn(C4CC4)c3c2F)C[C@H](C)N1,broth dilution,-,21,MIC,0.5 µg/mL
CC1CN(c2c(F)cc3c(=O)c(C(=O)O)cn(C4CC4)c3c2Br)CC(C)N1,-,-,14 strains,MIC90,4 µg/mL
NCC[C@H](O)C(=O)N[C@@H]1C[C@H](N)[C@@H](O[C@H]2O[C@H](CN)[C@@H](O)[C@H](O)[C@H]2O)[C@H](O)[C@H]1O[C@H]1O[C@H](CO)[C@@H](O)[C@H](N)[C@H]1O,-,-,CH-3/HIV+,MIC,2.5 µg/mL
CCCCN1CCN(c2cc3c(cc2F)c(=O)c(C(=O)O)cn3-c2ccc(F)cc2F)CC1,-,-,14 strains,MIC50,4 µg/mL
CC[C@@H](CO)NCCN[C@@H](CC)CO,-,-,1854,MBC,15 µg/mL
CC(C)(C)n1cc(C(=O)O)c(=O)c2cc(F)c(N3CCNCC3)cc21,-,-,14 strains,MIC50,2 µg/mL
CC[C@@H](CO)NCCN[C@@H](CC)CO,-,-,9838,MBC,30 µg/mL

The first 2 rows once more:

compound,method,tested at,strain,endpoint,result
CN[C@@H]1[C@@H](O)[C@@H](O[C@@H]2[C@@H](O)[C@H](O[C@H]3O[C@H](CN)CC[C@H]3N)[C@@H](N)C[C@H]2N)OC[C@]1(C)O,broth dilution,8 µg/mL,31 strains,inhibition,39%
NC[C@H]1O[C@H](O[C@H]2[C@H](O)[C@@H](O[C@H]3O[C@H](CO)[C@@H](O)[C@H](N)[C@H]3O)[C@H](N)C[C@@H]2N)[C@H](O)[C@@H](O)[C@@H]1O,-,-,Isolate C-43,MIC,50 µg/mL

Neighbouring rows are from separate reports. Inhibition is in % at the dose shown (toxicity tests: loss of growth or viability). MIC50, MIC90 and the like: level of inhibition, or share of isolates inhibited.